PubChem BioAssay AID449762 (Southern Research Specialized Biocontainment Screening …, 2010)
Some of the results follow. Results filed as inconclusive are left out. Calls of active or inactive are those of the source. Cut-off read from the data, not from the text of the source: inconclusive = inhibition above about 70% without an active follow-up result; inactive = below that.

assay: M. tuberculosis growth inhibition, HTS (AID 449762);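 note: bacterial growth assessed after seven days of incubation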; conditions: M. tuberculosis H37Rv growth inhibition, 7H9 media; at 25 µM; stronger effect = higher value

Row | SMILES | inhibition
1 | O=P(Nc1nccs1)(Oc1ccccc1)Oc1ccccc1 | inactive: 1.41%
2 | O=P(Nc1nccs1)(c1ccccc1)c1nc2ccccc2s1 (configuration not stated) | inactive: -0.52%
3 | CCOP1(=S)c2c(C)nn(CCC#N)c2N=C(c2ccccc2F)N1C (configuration not stated) | inactive: 0.03%
4 | CS(=O)(=O)c1cc([N+](=O)[O-])c2no[n+]([O-])c2c1 | inactive: -10.4%
5 | O=C(O)COc1ccc([As](=O)(O)O)cc1[N+](=O)[O-] | inactive: 7.08%
6 | Nc1ccccc1[As](=O)(O)c1ccccc1 | inactive: 7.11%
7 | NC(=O)Nc1ccc([As](=O)(O)O)cc1 | inactive: -4.12%
8 | CN(C(=O)Cc1ccccc1)[C@@H]1CC[C@]2(CCCO2)C[C@H]1N1CCCC1 | inactive: -1.5%
9 | CCOP1(=S)c2c(C)nn(CCC#N)c2N=C(c2ccc(F)cc2)N1C (configuration not stated) | inactive: -1.67%
10 | N#CCCN(C(=O)COC(=O)C(O)(c1ccccc1)c1ccccc1)c1ccc(F)cc1 | inactive: -3.35%
11 | CN(C(=O)Cc1ccc(Cl)c(Cl)c1)[C@H]1CC[C@@]2(CCCO2)C[C@@H]1N1CCCC1 | inactive: -1.37%
12 | COc1cc(C(=O)NCC2(N3CCOCC3)CCCCC2)ccc1OCC(C)C | inactive: 0.69%
13 | O=[As](O)(c1ccc(O)cc1)c1ccccc1O | inactive: 4.69%
14 | C[As](=O)(O)c1cccc(C(=O)O)c1 | inactive: -1.97%
15 | Cc1ccc(OP(=O)(Nc2ccc([N+](=O)[O-])cn2)Oc2ccc(C)cc2)cc1 | inactive: 0.32%
16 | Cc1ccc2nc3c(c(C)c2c1)CC(C(Cl)Cl)S3 (configuration not stated) | inactive: 6.06%
17 | ClCCSc1nnc(-c2cccnc2)o1 | inactive: -4.4%
18 | CC(C)c1ccc(OP(=O)(Nc2ccccn2)Oc2ccccc2F)cc1 (configuration not stated) | inactive: 5.2%
19 | CC(C)NC(=O)NP(=O)(Oc1ccccc1)Oc1ccccc1 | inactive: -3.75%

Row | SMILES | inhibition
20 | Cc1c2c(nc3ccccc13)SC(C(Cl)Cl)C2 (configuration not stated) | inactive: 4.32%
21 | Cc1cc(=O)[nH]c(N[N+](=O)[O-])n1 | inactive: 4.02%
22 | O=C(OC1CN2CCC1CC2)C12CC3CC(CC(C3)C1)C2 (configuration not stated) | inactive: 7.66%
23 | COc1cc(I)ccc1[As](=O)(O)O | inactive: -0.6%
24 | COc1ccc2nc(NP(=O)(c3ccccc3)c3ccccc3)sc2c1 | inactive: 2.76%
25 | COc1ccc(N/C(=N/P(=O)(N2CCOCC2)N2CCOCC2)N2CCOCC2)cc1 | inactive: -11.6%
26 | COP1(=S)c2c(C)nn(CCC#N)c2N=C(c2ccc(F)cc2)N1C (configuration not stated) | inactive: -1.77%
27 | O=C(Nc1ccncc1[N+](=O)[O-])c1ccc([N+](=O)[O-])cc1[N+](=O)[O-] | inactive: 7.2%
28 | O=C(COc1ccccc1)OC1CN2CCC1CC2 (configuration not stated) | inactive: -4.3%
29 | O=C(OC1CN2CCC1CC2)c1cccc([N+](=O)[O-])c1 (configuration not stated) | inactive: 1.96%
30 | CCOC(=O)c1ccc(NC(=O)C(C)(CCl)SC)cc1 (configuration not stated) | inactive: 6.77%
31 | CCC(C)N(CC(C)C)C(=S)SC(NC(C)=O)C(Cl)(Cl)Cl (configuration not stated) | inactive: -3.25%
32 | CCOC(=O)Nc1ccc([As](=O)(O)O)c(O)c1 | inactive: 8.63%
33 | Cc1cc(SC(NC(=O)c2ccccc2)C(Cl)(Cl)Cl)nc(C(C)C)n1 (configuration not stated) | inactive: -2.99%
34 | CCOC(=O)Nc1cccc([As](=O)(O)O)c1 | inactive: -0.89%
35 | Cc1cc(SC(NC=O)C(Cl)(Cl)Cl)ncn1 (configuration not stated) | inactive: 7.09%
36 | O=P(Nc1ccccn1)(c1cccc2ccccc12)c1cccc2ccccc12 | inactive: -5.68%
37 | O=[N+]([O-])c1ccc(Nc2ccc(Oc3ccc([N+](=O)[O-])cc3[N+](=O)[O-])cc2)c([N+](=O)[O-])c1 | inactive: 2.7%
